Measured values from several laboratories, pooled; numbers as filed in NIAID ChemDB.

Common to all: growth or infection tests; agent: Coxsackie virus; read-out: EC50

ECn is the concentration giving n% inhibition of infection, replication or growth. An empty or dashed field is not shown. Conditions beyond the fields shown may differ between rows. a–b is a range or a potency band.

compound	strain	cells	read by	result
CSc1nsc(-c2ccc(OCCCCOc3ccc(C#N)cc3)cc2)c1C#N	TYPE B1	HEP-2/L-929/VERO	plaque count	>2 µM
CSc1nsc(-c2ccc(C)cc2)c1C#N	TYPE B1	HEP-2	plaque count	>18 µM
CCn1c(-c2ccccc2)c(C)c(=O)c2cc(-c3ccccc3)ccc21	TYPE A7	HeLa S3	cytopathic effect	>1.9 µg/mL
CSc1nsc(-c2ccc(OCCCOc3ccccc3)cc2)c1C#N	TYPE B1	HEP-2/L-929/VERO	plaque count	2.5 µM
CCCCOc1ccc(-c2snc(SC)c2C#N)cc1	TYPE B1	HEP-2	plaque count	10 µM
COc1ccc(-c2c(C)c(=O)c3cc(OCC(C)C)c(C)cc3n2C)cc1C	TYPE A7	HeLa S3	cytopathic effect	>4 µg/mL
CSc1nsc(-c2ccc(OCCOc3ccc(C#N)cc3)cc2)c1C#N	TYPE B1	HEP-2/L-929/VERO	plaque count	>2 µM
Cc1cc(OCCCc2ccc(Cl)nn2)cc(C)c1-c1noc(C(F)F)n1		HeLa	cytopathic effect	0.033–0.659 µg/mL
C=CC(CO)(CO)CCn1cnc2c(N)ncnc21	TYPE B3			>100 µg/mL
Cc1ccc(CCCOc2c(C)cc(-c3nnn(C)n3)cc2C)o1		HeLa	cytopathic effect	0.033–0.659 µg/mL
CCn1c(-c2cccc(F)c2)c(C)c(=O)c2cc(C(C)C)ccc21	TYPE A7	HeLa S3	cytopathic effect	>4 µg/mL
Cc1cc(CCCCCOc2c(Cl)cc(C3=NCCO3)cc2Cl)on1	B-5	RD-2	plaque count	0.03 µg/mL
COc1ccc(-n2c(-c3ccccc3)c(C)c(=O)c3cc(C(C)C)ccc32)cc1	TYPE A7	HeLa S3	cytopathic effect	>2.5 µg/mL
CSc1nsc(-c2ccc(OCc3ccccc3)cc2)c1C#N	TYPE B1	HEP-2	plaque count	10 µM
Cc1nc(-c2cc(C)c(OCCCc3ccco3)c(C)c2)no1		HeLa	cytopathic effect	0.033–0.659 µg/mL
CSc1nsc(-c2ccc(C(F)(F)F)cc2)c1C#N	TYPE B1	HEP-2	plaque count	>14 µM
COCc1ccc(CCCOc2c(C)cc(-c3noc(C(F)F)n3)cc2C)nn1		HeLa	cytopathic effect	0.033–0.659 µg/mL
CSc1nsc(C)c1C#N	TYPE B1	HEP-2	plaque count	>100 µM
Cc1c(-c2ccccc2)n(-c2ccc(F)cc2)c2ccc(C(C)C)cc2c1=O	TYPE B4/JVB	HeLa S3	cytopathic effect	>2 µg/mL
CCc1ccc(CCCOc2cc(C)c(-c3noc(C(F)(F)F)n3)c(C)c2)nn1		HeLa	cytopathic effect	0.033–0.659 µg/mL
CSc1nsc(-c2c(Cl)cccc2Cl)c1C#N	TYPE B1	HEP-2	plaque count	>5 µM
CSc1nsc(-c2ccc(OCCCc3ccccc3)cc2)c1C#N	TYPE B1	HEP-2/L-929/VERO	plaque count	10 µM
CCCc1ccc(CCCOc2cc(C)c(-c3noc(C4CC4)n3)c(C)c2)nn1		HeLa	cytopathic effect	0.033–0.659 µg/mL

For reference, 2 entries again:

Cc1c(-c2ccccc2)n(-c2ccc(F)cc2)c2ccc(C(C)C)cc2c1=O ; strain: TYPE B4/JVB ; cells: HeLa S3 ; read by: cytopathic effect ; result: >2 µg/mL
CSc1nsc(C)c1C#N ; strain: TYPE B1 ; cells: HEP-2 ; read by: plaque count ; result: >100 µM